Measured values from several laboratories, pooled; numbers as filed in NIAID ChemDB.

Common to all: tests in culture; agent: Herpes simplex virus 1; read-out: EC50

Two numbers with a dash give a range or band.

structure	cells	strain or isolate	method	value
NC(=O)CSc1ncnc2c1cnn2CCCCO	E6SM	KOS	cytopathic effect	>400 µg/mL
Cc1cn([C@@H]2OC[C@H](CO)[C@H]2N=[N+]=[N-])c(=O)[nH]c1=O	E6SM	KOS	cytopathic effect	>80 µg/mL
O=c1[nH]n2c(-c3cn(-c4ccccc4)nc3-c3ccccc3)nnc2sc1=O	HEL	KOS	cytopathic effect	>80 µg/mL
CCCc1cn([C@H]2C[C@H](O)[C@@H](CO)O2)c(=S)nc1N	RPMI8226	A4-3 (TK-)	cytopathic effect	>277.4 µM
O=C(O)CP(=O)(O)O	VERO			50 µM
Nc1nc(=S)n([C@@H]2O[C@H](CO)[C@@H](O)[C@@H]2O)cc1/C=C/Br	RPMI8226	KOS (TK+)	cytopathic effect	30.5 µM
CC1=Nn2c(nnc2-c2cn(-c3ccccc3)nc2-c2ccccc2)SC1	HEL	KOS (TK-)	cytopathic effect	>16 µg/mL
O=c1[nH]c(=O)n([C@@H]2O[C@H](CO)[C@@H](O)[C@@H]2F)cc1I	VERO	F	plaque count	0.014 µM
c1ccc(C2=Nn3c(nnc3-c3cn(-c4ccccc4)nc3-c3ccccc3)SC2)cc1	HEL	KOS (TK-)	cytopathic effect	>3.2 µg/mL
O=C(NCc1ccc(Cl)cc1)c1cn2c3c(cc(CN4CCOCC4)cc3c1=O)OC(c1cccnc1)C2	HFF	11360 (ACV-resistant)	plaque count	5.3 µM
O=c1c2cccc(Cl)c2[nH]c2cc(O)cc(O)c12	VERO			19 µM
CN(C)c1cccc(CCNC(=S)Nc2ccc(NC(=O)c3ccccc3F)cc2)c1C(F)(F)F	VERO		ELISA	>10 µg/mL
O=c1[nH]c(=O)n([C@H]2C[C@H](O)[C@@H](COP(=O)(O)O)O2)cc1/C=C/c1ccccc1	PRK	McIntyre	cytopathic effect	30 µg/mL
CC(Sc1ncnc2c1cnn2COCCO)C(N)=O	E6SM	VWM1837 (TK-)	cytopathic effect	>400 µg/mL
OC[C@H]1O[C@@H](c2cc(C(O)C(I)I)c(F)cc2F)C[C@@H]1O	E6SM	KOS	cytopathic effect	>80 µg/mL
Nc1nc2c(ncn2COC(CO)CO)c(=O)[nH]1	VERO H	5711 (DRUG-resistant)	plaque count	1.82 µM
CCCCC(C)(C)[C@H](O)/C=C/[C@H]1C=CC(=O)[C@@H]1CCCCCCC(=O)O	HFF	KOS	hybridisation	7.3 µg/mL
O=C(Nc1ccc(NC(=S)NCCc2cc3ccccc3o2)cc1)c1cc2ccccc2o1	VERO		ELISA	>10 µg/mL
O=C(O)P(=O)(O)O	MEF	HL-34	plaque count	13.6 µg/mL
O=C(O)P(=O)(O)O	VERO	F-FIAC-C3	plaque count	55 µM
S=c1[nH]n2c(-c3cn(-c4ccccc4)nc3-c3ccccc3)nnc2s1	HEL	KOS	cytopathic effect	>80 µg/mL
O=c1c2ncn(COCCO)c2[nH]c2nccn12		F	cytopathic effect	0.08 µg/mL
Nc1ccn([C@@H]2OC[C@H](CO)[C@H]2O)c(=O)n1	E6SM	KOS TK- acyclovir-resistant	cytopathic effect	240 µg/mL
CC(O)c1cn([C@@H]2O[C@H](CO)[C@@H](O)[C@@H]2O)c(=S)nc1N	RPMI8226	A4-3 (TK-)	cytopathic effect	>244.8 µM
Nc1ccn([C@H]2O[C@@H](CO)[C@H](O)[C@H]2F)c(=O)n1	VERO	F-FIAU-C1	plaque count	6.1 µM
CC(Sc1ncnc2c1cnn2CCCCO)C(N)=O	E6SM	KOS	cytopathic effect	>400 µg/mL
Cn1cc(C(=O)NCc2ccc(Cl)cc2)c(=O)c2cc(CN3CCOCC3)ccc21	HFF	E-377	plaque count	3.5 µM
O=c1c2ncn(COCCO)c2[nH]c2ncc(C(c3ccccc3)(c3ccccc3)c3ccccc3)n12		McIntyre	cytopathic effect	>16 µg/mL
OC[C@H]1O[C@@H](c2cc(C(O)CI)c(F)cc2F)C[C@@H]1O	E6SM	TK-deficient acyclovir-resistant	cytopathic effect	>16 µg/mL
O=c1c2ncn(COCCO)c2nc2[nH]c(-c3ccccc3)c(-c3ccc(C(c4ccccc4)c4ccccc4)cc3)n12		TK-deficient acyclovir-resistant	cytopathic effect	>16 µg/mL
CC(Sc1ncnc2c1cnn2COCC(O)CO)C(N)=O	E6SM	VWM1837 (TK-)	cytopathic effect	>400 µg/mL
Nc1nc2c(ncn2COC(CO)CO)c(=O)[nH]1		03-16620	PCR	41.5 µM
CC(=O)Nn1c(-c2cn(-c3ccccc3)nc2-c2ccccc2)n[nH]c1=S	HEL	KOS	cytopathic effect	>80 µg/mL
[N-]=[N+]=Nc1cccc(/C=C/c2cn([C@H]3C[C@H](O)[C@@H](COP(=O)(O)O)O3)c(=O)[nH]c2=O)c1	PRK	KOS	cytopathic effect	>200 µg/mL
Nc1nc2c(ncn2COCCO)c(=O)[nH]1	VERO		cytopathic effect	0.11 µM
Cc1cn([C@H]2C[C@H](O)[C@@H](CO)O2)c(=S)[nH]c1=O	RPMI8226	A4-3 (TK-)	cytopathic effect	>302.6 µM
NC1=Nn2c(nnc2-c2cn(-c3ccccc3)nc2-c2ccccc2)SC1	HEL	KOS (TK-)	cytopathic effect	>16 µg/mL
Nc1nc2c(ncn2[C@H]2OC[C@@H](CO)C2O)c(=O)[nH]1	E6SM	KOS	cytopathic effect	1.9 µg/mL
Nc1ncnc2c1ncn2[C@@H]1C[C@H](CO)[C@@H](O)[C@@H]1O	VERO	F-AMAU-C2	plaque count	60 µM
O=c1[nH]n2c(-c3cn(-c4ccccc4)nc3-c3ccccc3)nnc2s1	HEL	KOS (TK-)	cytopathic effect	>16 µg/mL
C=Cc1cn([C@@H]2O[C@H](CO)[C@@H](O)[C@@H]2O)c(=S)[nH]c1=O	RPMI8226	KOS (TK+)	cytopathic effect	1.23 µM
C[C@@H](c1ccccc1)N(CC(=O)Nc1ccc(-c2csc(N)n2)cc1)C(=O)c1ccncc1	BHK-21/C13	615.8	plaque count	0.15 µM
CCc1cn([C@@H]2O[C@H](CO)[C@@H](O)[C@@H]2O)c(=S)[nH]c1=O	RPMI8226	A4-3 (TK-)	cytopathic effect	>264.9 µM
CCc1cn([C@H]2C[C@H](O)[C@@H](CO)O2)c(=O)[nH]c1=O	VERO	F-ACV-C4	plaque count	>400 µM
CC(O)c1cn([C@@H]2O[C@H](CO)[C@@H](O)[C@@H]2O)c(=S)[nH]c1=O	RPMI8226	KOS (TK+)	cytopathic effect	>245.1 µM
Nc1nc2c(ncn2CCC(CO)CO)c(=O)[nH]1	VERO	KT4	plaque count	99 µM
C=Cc1cn([C@@H]2O[C@H](CO)[C@@H](O)[C@@H]2O)c(=S)nc1N	RPMI8226	KOS (TK+)	cytopathic effect	>266.3 µM
CC[C@@]1(O)C[C@H](O[C@H]2C[C@H](N(C)C)[C@H](O[C@H]3C[C@H](O)[C@H](O[C@H]4CCC(=O)[C@H](C)O4)[C@H](C)O3)[C@H](C)O2)c2c(cc3c(c2O)C(=O)c2c(O)cccc2C3=O)[C@H]1C(=O)OC	VERO			0.25–5 µM
O=c1c2ncn(COCCO)c2[nH]c2ncc(CO)n12		McIntyre	cytopathic effect	>3.2 µg/mL
CCCc1cn([C@H]2C[C@H](O)[C@@H](CO)O2)c(=S)[nH]c1=O	RPMI8226	KOS (TK+)	cytopathic effect	0.47 µM

The last 7 rows once more:

| structure | cells | strain or isolate | method | value |
|---|---|---|---|---|
| CCc1cn([C@H]2C[C@H](O)[C@@H](CO)O2)c(=O)[nH]c1=O | VERO | F-ACV-C4 | plaque count | >400 µM |
| CC(O)c1cn([C@@H]2O[C@H](CO)[C@@H](O)[C@@H]2O)c(=S)[nH]c1=O | RPMI8226 | KOS (TK+) | cytopathic effect | >245.1 µM |
| Nc1nc2c(ncn2CCC(CO)CO)c(=O)[nH]1 | VERO | KT4 | plaque count | 99 µM |
| C=Cc1cn([C@@H]2O[C@H](CO)[C@@H](O)[C@@H]2O)c(=S)nc1N | RPMI8226 | KOS (TK+) | cytopathic effect | >266.3 µM |
| CC[C@@]1(O)C[C@H](O[C@H]2C[C@H](N(C)C)[C@H](O[C@H]3C[C@H](O)[C@H](O[C@H]4CCC(=O)[C@H](C)O4)[C@H](C)O3)[C@H](C)O2)c2c(cc3c(c2O)C(=O)c2c(O)cccc2C3=O)[C@H]1C(=O)OC | VERO |  |  | 0.25–5 µM |
| O=c1c2ncn(COCCO)c2[nH]c2ncc(CO)n12 |  | McIntyre | cytopathic effect | >3.2 µg/mL |
| CCCc1cn([C@H]2C[C@H](O)[C@@H](CO)O2)c(=S)[nH]c1=O | RPMI8226 | KOS (TK+) | cytopathic effect | 0.47 µM |

ECn: concentration that inhibits the pathogen or its effect by n%. Blank or dashed fields: not listed here. Conditions beyond the fields shown may differ between rows.